Pooled drug test results. Numbers come from NIAID ChemDB, via PubChem.

Common to all: target-level tests; species: HIV-1; target: Reverse transcriptase; measure: fold resistance

Fold resistance: result on the changed form divided by that on wild type. Neighbouring rows are from separate reports. An empty or dashed field is not shown. a–b is a range or a potency band.

SMILES | strain | mutations | method | result
CCN1c2ncc(CCOc3ccc(-c4ccc(CC(=O)O)c(C)c4)cc3C)cc2C(=O)N(C)c2cccnc21 | IIIB | RT-K103N Y181C | nucleotide incorporation / radiometric | 1
O=C(CSc1nnc(Br)n1-c1ccc(C2CC2)c2ccccc12)Nc1ccc(C(=O)O)cc1Cl |  | RT-Y188L | nucleotide incorporation / radiometric | >2
CCN1c2ncc(CCOc3ccc(C(=O)O)c4c3CCCC4)cc2-c2ncc(C)n2-c2cccnc21 |  | RT-K103N Y181C | nucleotide incorporation / radiometric | >2
CCN1c2ncc(CCOc3ccc(C(=O)Nc4cccn(CC(=O)O)c4=O)cc3C)cc2C(=O)N(C)c2cccnc21 | IIIB | RT-K103N Y181C | nucleotide incorporation / radiometric | >1
CCN1c2ncc(CCOc3ccc(CC(C)C(=O)O)c4ccccc34)cc2C(=O)N(C)c2ccc(C)nc21 |  | RT-Y188L | nucleotide incorporation / radiometric | >10
CCOC(=O)c1c(C(C)C)c(C#N)c(=N)n2ccccc12 |  | RT-Y188L |  | 0.867
CCN1c2ncc(CCOc3ccc(C(=O)O)c4c3CCN(C(=O)OC(C)(C)C)C4)cc2C(=O)N(C)c2cccnc21 |  | RT-K103N Y181C | nucleotide incorporation / radiometric | 1–10
O=P(O)(O)OP(=O)(O)O |  | RT-Q151N | nucleotide incorporation / radiometric | 1.7
CCN1c2ncc(CCOc3ccc(-c4ccc(CC(=O)O)cc4)cc3C)cc2-c2ncc(C)n2-c2cccnc21 |  | RT-K103N Y181C | nucleotide incorporation / radiometric | >1
O=c1cc(Cc2ccccc2)nc(NCCCCO)[nH]1 |  | RT-V106A |  | 0.183
C=CC1(C(F)(F)F)OC(=O)Nc2ccc(Cl)cc21 | A17 | RT-K103N Y181C | nucleotide incorporation | 23.1
C=Cc1nc(SC)nc(N(C)C)c1Cl |  | RT-Y181I | nucleotide incorporation / radiometric | >4.4
CCN1c2ncc(CCOc3cccc4c3CS(=O)(=O)N4CC(=O)O)cc2-c2nccn2-c2c(C)ccnc21 |  | RT-K103N Y181C | nucleotide incorporation / radiometric | >1
Nc1ccn([C@@H]2CS[C@H](COP(=O)(O)OP(=O)(O)OP(=O)(O)O)O2)c(=O)n1 |  | RT-K65R | nucleotide incorporation | 7.33
Cc1cc(C)cc(S(=O)(=O)c2c(C(N)=O)[nH]c3ccc(F)c(F)c23)c1 |  | RT-Y181I | nucleotide incorporation / radiometric | 681.8
CCN1C(=O)c2cc(CCOc3cccc4c3CNC(=O)N4)cnc2N(CC)c2ncccc21 | IIIB | RT-K103N Y181C | nucleotide incorporation / radiometric | >2
CCOC(=O)c1csc(-c2ccc(OCCc3cnc4c(c3)C(=O)N(C)c3cccnc3N4CC)c(C)c2)n1 | IIIB | RT-K103N Y181C | nucleotide incorporation / radiometric | >2
CCN1c2ncc(CCOc3ccc(CC(=O)O)c4c3CCCC4)cc2C(=O)N(C)c2ccc(Cl)nc21 |  | RT-V106A | nucleotide incorporation / radiometric | 1–10
CCN1c2ncc(CCOc3cccc4c3COC(=O)N4CC(=O)O)cc2C(=O)N(C)c2cccnc21 | IIIB | RT-K103N Y181C | nucleotide incorporation / radiometric | >1
CC(C)=CCN1Cc2cc(Cl)cc3[nH]c(=O)n(c23)C[C@@H]1C |  | RT-Y181C | RT activity | 60
CC(C)=CCOc1cc(NC(=S)c2ccsc2C)ccc1Cl |  | RT-Y181I |  | 6
Cc1occc1C(=S)Nc1ccc(Cl)c(C(=O)OCC2CC2)c1 |  | RT-V106A | nucleotide incorporation / radiometric | >8.33
CCN1c2ncc(CCOc3cccc4c3CN(C)C(=O)N4C)cc2C(=O)Nc2c(C)ccnc21 | IIIB | RT-K103N Y181C | nucleotide incorporation / radiometric | >2
CCNC(=O)N1CCc2c(OCCc3cnc4c(c3)C(=O)N(C)c3cccnc3N4CC)ccc(C(=O)O)c2C1 |  | RT-V106A | nucleotide incorporation / radiometric | 1–10
CCN1c2ncc(CCOc3cccc4c3CNC4=O)cc2C(=O)Nc2c(C)ccnc21 | IIIB | RT-K103N Y181C | nucleotide incorporation / radiometric | >2
CCCc1cc(=O)oc2c3c(c4c(c12)OC(C)(C)C=C4)O[C@H](C)C[C@@H]3O |  | RT-G138A | nucleotide incorporation / radiometric | 2.1
O=C(CSc1nnc(Br)n1-c1ccc(C2CC2)cc1Cl)Nc1ccc(C(=O)O)cc1Cl |  | RT-Y188L | nucleotide incorporation / radiometric | >2
C=Cc1cc(N(CC)CC)nc(S(C)(=O)=O)n1 |  | RT-K103N | nucleotide incorporation / radiometric | >114
CCN1c2ncc(CCOc3cccc4c3CCNC4=O)cc2-c2ncc(C)n2-c2cccnc21 |  | RT-K103N Y181C | nucleotide incorporation / radiometric | >2
O=C1NCC(CCC2(C(F)(F)F)OC(=O)Nc3ccc(Cl)cc32)O1 | A17 | RT-K103N Y181C | nucleotide incorporation | 1
CCN1c2ncc(CCOc3ccc(C(=O)NCc4ccc(C(=O)O)cc4)cc3C)cc2C(=O)N(C)c2cccnc21 | IIIB | RT-K103N Y181C | nucleotide incorporation / radiometric | 1
Cc1cc(C)cc(S(=O)(=O)c2c(C(=O)NCCO)[nH]c3ccc(Cl)cc23)c1 |  | RT-Y188L | nucleotide incorporation / radiometric | >8000
CCN1c2ncc(CCOc3cccc4c3CN(C)C(=O)N4C)cc2-c2ncc(C)n2-c2cccnc21 |  | RT-K103N Y181C | nucleotide incorporation / radiometric | >2
CCN1c2ncc(CCOc3ccc4on(C)c(=O)c4c3)cc2C(=O)Nc2c(C)cc(F)nc21 | IIIB | RT-K103N Y181C | nucleotide incorporation / radiometric | >2
NC(=O)c1[nH]c2ccc(Cl)cc2c1S(=O)(=O)c1ccccc1 |  | RT-Y181I | nucleotide incorporation / radiometric | 140
Cc1c(Cc2ccccc2)nc(SCCCCO)[nH]c1=O |  | RT-Y188L |  | 0.829
CCc1ccc(-n2c(SCC(=O)Nc3ccc(C(=O)O)cc3Cl)nnc2C(F)(F)F)c2ccccc12 |  | RT-Y188L | nucleotide incorporation / radiometric | >2
Cc1cc(S(N)(=O)=O)ccc1NC(=O)COc1ccccc1C(=O)c1cc(Cl)cc(C#N)c1 | NNRTI-resistant | RT-K103N Y181C | fluorescence | 1.4
CCN1c2ncc(CCOc3ccc(C(=O)N=c4ccccn4O)cc3C)cc2C(=O)Nc2c(C)ccnc21 | IIIB | RT-K103N Y181C | nucleotide incorporation / radiometric | >1
CCN1c2ncc(CCOc3cccc4c3C(C)C(=O)N4C)cc2C(=O)N(C)c2cccnc21 | IIIB | RT-K103N Y181C | nucleotide incorporation / radiometric | >1
CCN1c2ncc(CCc3ccccc3)cc2C(=O)N(C)c2ccc(Cl)nc21 | IIIB | RT-K103N | RT activity | 38
CCc1cc(CCc2nc3ccccc3o2)c(=O)[nH]c1C |  | RT-K103N Y181C Y188C | nucleotide incorporation | >3000
COC(=O)NCCCCNc1nc(Cc2ccccc2)c(C)c(=O)[nH]1 |  | RT-V179D |  | >43.5
CCN1c2ncc(CCOc3cccc4c3ccc[n+]4[O-])cc2C(=O)Nc2c(C)cc(Cl)nc21 |  | RT-K103N P225H | nucleotide incorporation / radiometric | 2.2
Cc1ccnc2c1NC(=O)c1cc(CCOc3cccc4c3CNC(=O)N4)cnc1N2C1CC1 | IIIB | RT-K103N Y181C | nucleotide incorporation / radiometric | >2
CCOCn1c(Sc2ccccc2)c(CC)c(=O)[nH]c1=O |  | RT-Y188L | nucleotide incorporation | >234
CCN1c2ncc(CCOc3ccc4c(c3)COC(=O)N4)cc2C(=O)N(C)c2cccnc21 | IIIB | RT-K103N Y181C | nucleotide incorporation / radiometric | >2
Cc1cc(C2CC2)cc(C)c1-n1c(Br)nnc1SCC(=O)Nc1ccc(C(=O)O)cc1Cl |  | RT-Y188L | nucleotide incorporation / radiometric | >2
CCN1c2ncc(CCOc3cccc4c3CS(=O)(=O)N4)cc2-c2nccn2-c2c(C)ccnc21 |  | RT-K103N Y181C | nucleotide incorporation / radiometric | >1
CC(C)=CCOc1cc(NC(=S)c2ccoc2C)ccc1Cl |  | RT-E138K |  | 0.66
Cc1occc1C(=S)Nc1ccc(Cl)c(/C=N/OC(C)(C)C)c1 |  | RT-Y188H | nucleotide incorporation / radiometric | 1.31
CCN1c2ncc(CCOc3ccc(C(=O)O)cc3C)cc2-c2nccn2-c2cccnc21 |  | RT-K103N Y181C | nucleotide incorporation / radiometric | >2
C=CCO/N=C/c1cc(NC(=S)c2ccoc2C)ccc1Cl |  | RT-Y188H | nucleotide incorporation / radiometric | 1.17
O=C(CSc1nnc(Br)n1-c1ccc(C2CC2)cc1C(F)(F)F)Nc1ccc(C(=O)O)cc1Cl |  | RT-Y181C | nucleotide incorporation / radiometric | >1